According to patent publication US20040214900A1, “Method of treating strongyloides infections and medicaments therefor” (priority 2003, published 2004):

Experiments:
[1] = test system: Strongyloides stercoralis infective larvae; type: cell-based; conditions: 0.6% AI
Method: (§1) Coproculture of about 30 g of fresh, moistened canine faeces was conducted using granular charcoal (1:1 v:v) in sealed 10 cm diameter Petri dishes. Cultures were maintained at 26° C. under semi-lighted conditions. S. stercoralis filariform larvae typically migrated to the surface of the culture and eventually into water droplets that condensed on the inner surface of the lid. Larvae appearing within 2 days were mostly those accruing from the homogonic cycle and usually occurred in insufficient numbers for bioassay. After five to eight days had elapsed free-living adult worms had effected a 50-fold increase in the population density (heterogonic cycle).
The lethality of the tested compounds was evaluated by incubating larvae obtained as in Example 1 in suspensions containing 0.6% of Compound (1) as the active ingredient (AI).
The mortality of the larvae was assessed by a dye exclusion test such as have been used successfully to indicate viability in parasitic platyhelminths. (See Halton & Arme (1971) Exp. Parasit. 30:54; Robinson & Arme (1985) Ann. Trop. Med. & Parasit. 79:17.) Similar testing was applied to S. stercoralis larvae. In these tests, use of
0.01% v/v eosin in LNSS (ELNSS) in an eosin-exclusion test indicated death of larvae in less than 10 minutes and had no effect on healthy individuals.

[2] = test system: Strongyloides stercoralis infective larvae; test: Immobilisation of S. stercoralis infective larvae incubated in 0.6% AI suspensions; type: cell-based
Method: as §1
The effectiveness of the tested compounds was evaluated by incubating larvae obtained as in Example 1 in suspensions containing 0.6% of Compound (1) as the active ingredient (AI). Incubation times were 1, 2, 3, 4, 5, 6, 24, 48, 72, and 96 hours. Three (3) replicates were run in each assay, using >>100 larvae per replicate.
The anthelmintic effectiveness of Compound (1) and of three commercial anthelmintics, namely albendazole, thiabendazole, and ivermectin, was evaluated, and the results are summarized in Table 1. Compound (1) immobilized 100% of the larvae within one hour's exposure. This was also true for ivermectin. However, similar concentrations of albendazole and thiabendazole immobilized 50% of the infective larvae only after 73.7 and 78.9 hours, respectively.

ivermectin was tested, and the “Regression equation (Y = a + bx), a (mortality)” value [1] was −7.35 and the “Regression equation (Y = a + bx), b (mortality)” value [1] was 2.94.

`c1ccc2[nH]c(-c3cscn3)nc2c1` [Thiabendazole] was tested, and the “Regression equation (Y = a + bx), a (immobilisation)” value [2] was −12.02 and the “Regression equation (Y = a + bx), b (immobilisation)” value [2] was 6.27.

With `CCCSc1ccc2nc(NC(=O)OC)[nH]c2c1` [Albendazole, albendazole] the “Regression equation (Y = a + bx), a (immobilisation)” value [2] was −5.09 and the “Regression equation (Y = a + bx), b (immobilisation)” value [2] was 2.74.
